Values of other authors as cited in article PMC8427777 (ACS Omega, 2021).

Test system: COVID-19
Details: anti-C5 antibody; cited from earlier work

B1: Eculizumab: anti-C5 antibody (antibody, chains of the INN, looked up)
heavy: QVQLVQSGAEVKKPGASVKVSCKASGYIFSNYWIQWVRQAPGQGLEWMGEILPGSGSTEYTENFKDRVTMTRDTSTSTVYMELSSLRSEDTAVYYCARYFFGSSPNWYFDVWGQGTLVTVSSASTKGPSVFPLAPCSRSTSESTAALGCLVKDYFPEPVTVSWNSGALTSGVHTFPAVLQSSGLYSLSSVVTVPSSNFGTQTYTCNVDHKPSNTKVDKTVERKCCVECPPCPAPPVAGPSVFLFPPKPKDTLMISRTPEVTCVVVDVSQEDPEVQFNWYVDGVEVHNAKTKPREEQFNSTYRVVSVLTVLHQDWLNGKEYKCKVSNKGLPSSIEKTISKAKGQPREPQVYTLPPSQEEMTKNQVSLTCLVKGFYPSDIAVEWESNGQPENNYKTTPPVLDSDGSFFLYSRLTVDKSRWQEGNVFSCSVMHEALHNHYTQKSLSLSLG
light: DIQMTQSPSSLSASVGDRVTITCGASENIYGALNWYQQKPGKAPKLLIYGATNLADGVPSRFSGSGSGTDFTLTISSLQPEDFATYYCQNVLNTPLTFGQGTKVEIKRTVAAPSVFIFPPSDEQLKSGTASVVCLLNNFYPREAKVQWKVDNALQSGNSQESVTEQDSKDSTYSLSSTLTLSKADYEKHKVYACEVTHQGLSSPVTKSFNRGEC
In the case of B1, the “outcome in COVID-19 treatment” value is given as “favorable outcome”.
